Measurements: article PMC7658014
Construct, isoform or probe ends are uncertain for at least one entry.

target: His6-OpaR (UniProt Q79YV4); assay: EMSA; details: EMSA: 0.4 ng probe, 20 uL of 100 mM HEPES pH 7.6, 5 mM EDTA, 50 mM (NH4)2SO4, 5 mM DTT, 1% Tween 20, 150 mM KCl, 25 C, 30 min; recombinant protein; residues 1-204; protein details: N-terminal His6 (pET28a); label: 3' digoxigenin-11-ddUTP; probe letters rebuilt from the primers and the genome

Sequence	binding result
CGTTTTTTCAAGCAGGTTAGATAAAAATAATATTTAATTATGAAAATGATAATTGATCTCATTTTTATTTAAGGGCAGAATACGCGGATTCCATTAATCCTATAAATG (double strand) [protease II P2]	binds
GAATTTAAAGTGATATTTTGACTTTTTTGAGCGTCGATTGGTCATCGGCGCTCAAACATTTATAAATAACGTGGTCTTCTGCTCAAATTTTCTTTTTGATCCCCTTGTCAGCATTCCCTTATCCTTTCATTTCTGTA (double strand) [m6 protease P2]	binds
AGTACATCATGATCGTCGTGATGATCATTGGCCGTATTGGGCCTTTGACGCTCGCATATATGTTAGCGAGACCAGAGCCAACCTTGATTAACTACCCAGAAGACACGGTTCTTACTGGTTGATTTGTCAGTAACAAGCAAAATGAATGC (double strand) [m6 protease P1]	binds
TACGGCTCAGCCCCCATCAAAACCTTTTAGCTTAGAATAGAAGTCTACTGACAAATTTACCAATAAGGAAAGCATCTAAGGCATGCAATAGACCGATAGCAACTGTGAGGAAATGGGCGGGAGCTAAC (double strand) [serine protease P1]	binds

same assay, conditions: two shifted bands; EMSA: 0.4 ng probe, 20 uL of 100 mM HEPES pH 7.6, 5 mM EDTA, 50 mM (NH4)2SO4, 5 mM DTT, 1% Tween 20, 150 mM KCl, 25 C, 30 min; recombinant protein; residues 1-204; protein details: N-terminal His6 (pET28a); label: 3' digoxigenin-11-ddUTP; probe letters rebuilt from the primers and the genome

Sequence	binding result
AACCAGTGTAAACACAATCAACATCTTGCTAAATTAGCAATCTGTGCTGTTTATATGAAGTCAGACCAATATAAGCATTGGGAGAAACGGTTAGTAAGAAAAGACAAGGGTTGGCTAAGTG (double strand) [protease II P1]	binds

target: His6-OpaR (UniProt Q79YV4); assay: DNase I footprinting; details: footprinting: 75 ng probe, DIG Gel Shift Kit binding buffer, 25 C, 30 min; recombinant protein; residues 1-204; protein details: N-terminal His6 (pET28a); label: 5' 6-FAM (sense or antisense); probe letters rebuilt from the primers and the genome

Sequence	binding result
TGCAGGTTTGACGGCAGAGCTTTCAGAGCCTGGAAAGTACATCATGATCGTCGTGATGATCATTGGCCGTATTGGGCCTTTGACGCTCGCATATATGTTAGCGAGACCAGAGCCAACCTTGATTAACTACCCAGAAGACACGGTTCTTACTGGTTGATTTGTCAGTAACAAGCAAAATGAATGCAAATTAACGCTTTGAATTTAAAGTGATATTTTGACTTTTTTGAGCGTCGATTGGTCATCGGCGCTCAAACATTTATAAATAACGTGGTCTTCTGCTCAAATTTTCTTTTTGATCCCCTTGTCAGCATTCCCTTATCCTTTCATTTCTGTACCATTCATTCACTTAATTTATATCTAATGCGTAAATAACCATCAGGTAACCGCTCGTTAAATTGATGGGTATCTGAGTTCGTTTTACGCATGGTGAATTGAAAAGATGGAGCCGTACTTTGAAATTCCACACCCTTGCCTTGACCATGCTGACTGCGCTTGTTGCCGGAAACAGTATGGCAACGACACCACCATCGCCAATTTGGCATCCGATCACGCTGAGTGACGGAAGCAATAGCGAGGCGATTTTACGCGGAACTGCTGATTTCCATTGGTTTGAAGACAAACAAGGCAATGCCTTGATTCAGGAAGATGGTGTTTGGTTTTTTGCTCAGCTCCAGCGTAATTCAGACACCCCTGA (double strand) [m6 protease footprint probe]	binds
CCTCTCGCTCTGAAAGGTCGTTTTCTAGTTCAGACTTCAACGCCTTTAATGTACTGAGCTCTTCGCCCATGCTGCGTGAGTGCTCGGTGAGCTGCGCTTGTTTCATCGCTGCGCTATCGACCCGCGCGTAGAGATGGTTTATGAGAATGGCGGTAGCTGCCAAAGTCAGTACAAATAGCCCTAAAAAGGTTTTTAGGTTGCGTTGCATCCGTTTACTGAAATACCAATGCTTGGAGCCATTGATGGTTGATATCGAGATCGTCAGTTGGTCTTTCATCATGTCGTAATGATCGTATTCTGGTATAAGCCTCGTCACTGAGTGAGCTCGACTGTAAGGAAAACCACAGGGGACTGCCAGAGGCAAATTGGAAAGAAGTGTCAGGTCGTGAGCCGTTTTCCGATATTTGATAAAAGACTCAGTGTGGATTTAATGTTGGGTTAATTTTGGTCGGTGTTGCATGTTTGGCACTTTAGAGTGACGAAATTACCAATAGTATGAATGTGCAATTCAACATACTTCACGGTTTATCCTATAAATTGCGGATATTTTAAGAAATTAATATTCATTAAATTGATAACTGGCGACGGATCTTTATGATGACGGTTGATATGCCGATAGAGCACTCATTAGCCAGTGTTTGGCGGTGTCGGAGAACTGTAATTCGTCTCTACAGAACTCGATTTATTAAGGCTTAAAACTCGAATGCAAAACGCATTTACGAACCG (double strand) [lytM footprint probe]	binds
TGCGCCAGCAGATCTTGTGTCAGTGCCTGATAACTTTTTTGATACTGTTCGGTCTTGCGGTTTTGCTGCGTCAAGTAGGTAAGAACTCGCTCATCTTTACGAGCGTCATCTCGCAGCCAGTTAAAATCATCAGCGGCAGTAGCGCCAAAACTAGAGGTAACTATGAGCCCTAAAAAAACATGAGTAAATTTCATATAGAGAGCGAATTCATTTATAGGATTAATGGAATCCGCGTATTCTGCCCTTAAATAAAAATGAGATCAATTATCATTTTCATAATTAAATATTATTTTTATCTAACCTGCTTGAAAAAACGTTTGCTTTAACCAGTGTAAACACAATCAACATCTTGCTAAATTAGCAATCTGTGCTGTTTATATGAAGTCAGACCAATATAAGCATTGGGAGAAACGGTTAGTAAGAAAAGACAAGGGTTGGCTAAGTGACGGGCATTAAAAAATCCGAGTGCGAACACTCGGATTTTATATGCATTAGAATCAGTTTAGAACTGAGGCGATCATGACTCTTCAGAGCTTGGTGCCGCAGGCTTTTTCTTAGGGATGAACACGTCATCACCCACCGATACGTTTTTGT (double strand) [protease II footprint probe]	binds
TGATGATCTTGTTGTTGCTGCGTGCAAAGAAAAAACAGTGTTAGCCGTTCATTACGTGCAGAAGAAAAAATTGGCAGACAAGCTTGCTGGTGTAGCAAGTAAAGTCGCTGACAGTGTTGTGCTTAAACTTGCAGAGCGTGGTCAAAAACCAATTGTCTAATCAATGAGATAATTCGGTCATTCAACATGGCGAGAGTGAAAACTCTCGCCATTTTTATTGGAACTAATTTGTCTACAAACGACTCAATATCCAGTACTTATTTTTATGTGTCCTGATGAACCCAAGTGAGCATTGGGTGTAATGCTTTACACGACATTTTTCCTCGCTCCAGAAGGCGATTACCCGTATAATACGCGCCTCGAAAACCGAGCAAATTGCTAAAAAGAAACTATAGGTGGAGAAGAACATGTCCTCTCAAACTCCGGTTGTAACCGTAGATGGACCTAGTGGTGCAGGTAAAGGCACTTTATGTATGTTGCTGGCGAAAAAGTTGG (double strand) [periplasmic protease footprint probe]	binds
GAAGGTCGCGCGGTCAAAAGAGAGGTTGTAGGTGGCAATCTTTACTTCAGTTGGCTGAACGTTTACGTATTTCGTGTCGTCGTCATTGCAGCCAGTCAGTAAAGCGGCACCGATAAGGAGAGCGAGAGAAGTTTTAATTGTTTTCATGGGTACGTCATACCTTATAATTGATTCGGGCAAATATTAATAACATCAGTAATATTTGTAAGCGATATGAGTCACACAAACGTTTGCATAATTACATATACAATCAATTTTTGTGTGATTTGTGCAATAAATGCGACAGTTTCAACATCAAAAGGTTATATGCAAATTGTTAAAGGTATATGTCGAGAGCGTTGAATTGCCATAAACTCATCCATAAGGTCTATAAATTCCTGTGCTAGACTCAATGAACAGAATGAGATCAATAAGCCTAACGTCCTGTTAAGGGATTATTCGGCGCATAAAATCTGTCAGTTTGGCTTTGCTATTTGTGCAAAATAGGGGACTTACCGATGGATCTAGGATCAAAATATCAGCGCAAGCTCGCAGTTGGCTTGGTGTTGGTGTCACCACTTCTTGTTTCACCTTCTCTCTCTGCCGCTCAGTTGGAGCGATTAGAGCCA (double strand) [mcp02 footprint probe]	binds
